Compound potency records, mixed from different reports. Data source: NIAID ChemDB in PubChem.

All rows: tests in culture; organism: HIV-1; cells: MT-4; measure: EC50

Neighbouring rows are from separate reports.

SMILES	strain	changes	method	setting	result
O=C(N[C@H]1c2ccccc2OC[C@H]1O)[C@H](Cc1cccnc1)C[C@H](O)CN1CCN(Cc2ccn(-c3ccc(Cl)cc3)c2)C[C@H]1C(=O)NCC(F)(F)F	K-60C Clinical isolate	PR-L10I M46I I54V Q58E L63P I64V V77I V82F I84V L90M I93L	p24	-	<0.015 µM
CCC(C)Nc1nc(Cc2c(F)cccc2F)c(C)c(=O)[nH]1	-	RT-Y181C	cytopathic effect / MTT	-	2.3 µM
Cc1cc(-c2ccc(C#N)cc2)cc(C)c1Oc1ccnc(S(=O)(=O)CC(=O)Nc2ccc(C#N)cc2)n1	IIIB	F227L V106A	MTT	-	0.642 µM
C=CCN1C(=O)c2cccn2S(=O)(=O)c2ccc(Cl)cc21	IIIB	-	cytopathic effect / MTT	-	>32 µM
Cc1cc(C#N)cc(C)c1Oc1nc(Nc2ccc(C#N)cc2)nc(N)c1Br	IIIB	L100I	MTT	-	0.007 µM
O=C(N[C@H]1c2ccccc2OC[C@H]1O)[C@H](Cc1cccnc1)C[C@H](O)CN1CCN(Cc2ccn(-c3ccccc3F)c2)C[C@H]1C(=O)NCC(F)(F)F	NL4-3 WT	-	p24	-	<0.015 µM
CC(C)=CCN1C(=O)c2cccn2S(=O)(=O)c2ccccc21	IIIB	-	cytopathic effect / MTT	-	>41 µM
Cc1cn([C@H]2C[C@H](N=[N+]=[N-])[C@@H](CO)O2)c(=O)[nH]c1=O	126 WT	-	p24	-	0.08 µM
O=C1N(Cc2ccc(CO)cc2)[C@H](COc2ccccc2)[C@H](O)[C@@H](O)[C@@H](COc2ccccc2)N1Cc1ccc(CO)cc1	IIIB	-	cytopathic effect / XTT	-	0.07 µM
Cc1cc(/C=C/C#N)cc(C)c1Oc1ccnc(S(=O)(=O)CC(=O)Nc2ccc(F)cc2)n1	-	-	MTT	-	0.005 µM
Cc1cc(C)c(-n2nnnc2SCC(=O)Nc2ccc(C#N)cc2)c(C)c1	-	-	p24	-	<10 µM
Cc1ccccc1-n1ccc(CN2CCN(C[C@@H](O)C[C@@H](Cc3cccnc3)C(=O)N[C@H]3c4ccccc4OC[C@H]3O)[C@H](C(=O)NCC(F)(F)F)C2)c1	K-60C Clinical isolate	PR-L10I M46I I54V Q58E L63P I64V V77I V82F I84V L90M I93L	p24	-	<0.125 µM
Cc1cn([C@H]2C[C@H](N=[N+]=[N-])[C@@H](CO)O2)c(=O)[nH]c1=O	HXB2-D184+294 (RT M184V P294S)	RT-M184V P294S	RT activity	-	0.014 µM
CCCNc1nc(C(C)c2c(F)cccc2F)c(C)c(=O)[nH]1	IIIB	-	cytopathic effect / MTT	-	0.01 µM
O=C(N[C@H]1c2ccccc2OC[C@H]1O)[C@H](Cc1cccnc1)C[C@H](O)CN1CCN(Cc2ccn(-c3ccc(Cl)c(Cl)c3)c2)C[C@H]1C(=O)NCC(F)(F)F	NL4-3 WT	-	p24	-	<0.015 µM
O=C1c2cccn2S(=O)(=O)c2ccccc2N1C1CC1	IIIB	-	cytopathic effect / MTT	-	60 µM
Cc1ccnc2c1NC(=O)c1cccnc1N2C1CC1	rA17	-	p24	-	<100 µM
Nc1ccn([C@H]2CC[C@@H](CO)O2)c(=O)n1	Clinical isolate	RT-I50V K70R I135V T215Y	-	clinical isolate	0.75 µM
c1ccc(-c2cc(CN3CCCNCCNCCCNCC3)cc(CN3CCCNCCNCCCNCC3)c2)cc1	RF	-	cytopathic effect / MTT	-	0.1 µg/mL
Cc1cc(C)c(-n2nnnc2SCC(=O)Nc2cccc(F)c2F)c(C)c1	-	-	p24	-	<10 µM
Cc1cn([C@H]2C[C@H](N=[N+]=[N-])[C@@H](CO)O2)c(=O)[nH]c1=O	IIIB	-	p24	-	<0.025 µM
O=C1Nc2ccccc2Cn2ccnc21	IIIB	-	cytopathic effect / MTT	-	>300 µM
Cc1cc(C)c(-n2nnnc2SCC(=O)Nc2cccc(Cl)c2F)c(C)c1	-	-	p24	-	<10 µM
CC(C)CN1C(=O)c2cccn2S(=O)(=O)c2ccccc21	IIIB	-	cytopathic effect / MTT	-	>184 µM
Cc1ccnc2c1NC(=O)c1cccnc1N2C1CC1	IIIB	Y181C	MTT	-	>15.9 µM
Fc1c(F)c(CN2CCCNCCNCCCNCC2)c(F)c(F)c1CN1CCCNCCNCCCNCC1	NL4-3	-	cytopathic effect / MTT	-	0.09 µg/mL
Cc1cc(C)c(-n2nnnc2S(=O)CC(=O)Nc2ccccc2[N+](=O)[O-])c(C)c1	-	-	p24	-	<10 µM
C/C=C/CN1C(=O)c2cccn2S(=O)(=O)c2ccc(Cl)cc21	IIIB	-	cytopathic effect / MTT	-	>300 µM
COc1cc(CN2CCCNCCNCCCNCC2)c(OC)cc1CN1CCCNCCNCCCNCC1	NL4-3	-	cytopathic effect / MTT	-	0.02 µg/mL
COC(=O)c1ccccc1NC(=O)CSc1nnnn1-c1cccc2ccccc12	-	-	p24	-	<10 µM
C1CNCCNCCCN(CCCN2CCCNCCNCCCNCC2)CCNC1	NL4-3	-	cytopathic effect / MTT	-	0.35 µg/mL
CCc1cc(NCc2nc3ccccc3o2)c(=O)[nH]c1C	IIIB	-	p24	-	<0.2 µM
Cc1cc(C)c(-n2nnnc2SCC(=O)Nc2ccc(Cl)cc2F)c(C)c1	-	-	p24	-	<10 µM
Cc1c(C(C)c2c(F)cccc2F)nc(NC(C)C)[nH]c1=O	IIIB	-	cytopathic effect / MTT	-	0.005 µM
c1ccc2c(c1)Cn1cccc1-c1nncn1-2	IIIB	-	cytopathic effect / MTT	-	>300 µM
CC(c1cc(=O)[nH]c(NC2CCCC2)n1)c1c(F)cccc1F	IIIB	-	cytopathic effect / MTT	-	0.02 µM
Cc1cn([C@H]2C[C@H](N=[N+]=[N-])[C@@H](CO)O2)c(=O)[nH]c1=O	IIIB)(ddC	-	p24	-	0.04 µM
N#Cc1ccc(-n2ccc(CN3CCN(C[C@@H](O)C[C@@H](Cc4cccnc4)C(=O)N[C@H]4c5ccccc5OC[C@H]4O)[C@H](C(=O)NCC(F)(F)F)C3)c2)cc1	NL4-3 WT	-	p24	-	<0.062 µM
O=C(CSc1nnnn1-c1ccccc1Cl)Nc1ccccc1Cl	-	-	p24	-	<10 µM
O=S1(=O)c2ccccc2NC(CO)c2cccn21	IIIB	-	cytopathic effect / MTT	-	>200 µM

For reference, 5 entries again:

SMILES | strain | changes | method | setting | result
CCC(C)Nc1nc(Cc2c(F)cccc2F)c(C)c(=O)[nH]1 | - | RT-Y181C | cytopathic effect / MTT | - | 2.3 µM
CCCNc1nc(C(C)c2c(F)cccc2F)c(C)c(=O)[nH]1 | IIIB | - | cytopathic effect / MTT | - | 0.01 µM
CCc1cc(NCc2nc3ccccc3o2)c(=O)[nH]c1C | IIIB | - | p24 | - | <0.2 µM
Cc1cc(C)c(-n2nnnc2SCC(=O)Nc2ccc(Cl)cc2F)c(C)c1 | - | - | p24 | - | <10 µM
Cc1cn([C@H]2C[C@H](N=[N+]=[N-])[C@@H](CO)O2)c(=O)[nH]c1=O | IIIB | - | p24 | - | <0.025 µM

ECn: concentration that inhibits the pathogen or its effect by n%. Blank or dashed fields: not listed here.